Anti-infective test results gathered from many reports (values: NIAID ChemDB through PubChem).

All rows: tests on isolated targets; organism: HIV-1; target: Reverse transcriptase; read-out: inhibition

Lines come from different laboratories, so protocols vary.

smiles | dose | strain | mutations | read by | value
C1=Cc2cccnc2N(C2CC2)c2ncccc21 | 1 µM |  | RT-L100I | nucleotide incorporation | 81%
CCOc1ccccc1N1CCN(C(=O)c2cc3cc4c(cc3[nH]2)OCO4)CC1 | 50 µM | IIIB |  | RT activity | 98.5%
COc1cc(O)c2c(=O)cc(-c3c(OC)c(OC)c(OC)c(OC)c3OC)oc2c1 | 200 µg/mL |  |  | nucleotide incorporation / radiometric | 7.7%
Nc1ccn([C@@H]2CS[C@H](COP([O-])(=S)OP(=O)(O)C(F)(F)P(=O)(O)O)O2)c(=O)n1 | 10 µM |  |  | fluorescence | 0%
Oc1cc(O)c2c(c1)O[C@H](c1cc(O)c(O)c(O)c1)[C@H](O)C2 | 0.1 µg/mL | LAV |  |  | 0%
COc1ccccc1N1CCN(C(=O)c2cc3ccccc3[nH]2)CC1 | 50 µM | IIIB |  | RT activity | 54.7%
COC(=O)C1(O)C[C@@H](OC(=O)/C=C/c2ccc(O)c(O)c2)C(O)[C@H](OC(=O)/C=C/c2ccc(O)c(O)c2)C1 | 100 µg/mL |  |  | RT activity / absorbance | 61.9%
COc1ccc(-c2oc3cc(O)cc(O)c3c(=O)c2OC)cc1 | 200 µg/mL |  |  | RT activity | 46.8%
Cc1cn([C@H]2C[C@H](N=[N+]=[N-])[C@@H](CP(=O)(O)OP(=O)(O)OP(=O)(O)O)O2)c(=O)[nH]c1=O | 10 µM |  |  | fluorescence | 30–44%
O=C(O)c1cc(O)c(O)c(O)c1 | 10 µg/mL |  |  |  | 10%
O=C(/C=C/c1ccc(O)c(O)c1)O[C@H]1[C@H](O)C[C@](O)(C(=O)O)C[C@H]1OC(=O)/C=C/c1ccc(O)c(O)c1 | 100 µg/mL |  |  | RT activity / absorbance | 44%
O=C(O[C@@H]1Cc2c(O)cc(O)cc2O[C@@H]1c1ccc(O)c(O)c1)c1cc(O)c(O)c(O)c1 | 10 µg/mL |  |  |  | 0%
CCNc1cccnc1N1CCN(C(=O)c2cc3cc4c(cc3[nH]2)OCO4)CC1 | 50 µM | IIIB |  | RT activity | 99.4%
C=C(CC[C@@H](C)[C@H]1CC[C@@]2(C)[C@@H]3CC[C@H]4[C@](C)(C(=O)O)[C@@H](O)CC[C@@]45C[C@@]35CC[C@]12C)C(C)C | 200 µg/mL |  |  | nucleotide incorporation / radiometric | 93.6%
O=c1cc(-c2ccccc2)oc2cc(O)c(O)c(O)c12 | 2 µg/mL |  |  |  | 70%
Oc1cc(O)c2c(c1)O[C@H](c1cc(O)c(O)c(O)c1)[C@H](O)C2 | 1 µg/mL |  |  |  | 0%
C[C@@]12CCC[C@@](C)(C(=O)O)C1CCC13C=C(CC[C@H]4C(=O)[C@@]56CCC7[C@@](C)(CCC[C@@]7(C)C(=O)O)C5CC[C@H]4C6)[C@H](CCC12)C3 | 200 µg/mL |  |  | RT activity | 47.1%
Cc1cc(O)c2c(c1)C(O)C=CC2=O | 100 µg/mL |  |  | RT activity | 17%
COc1cc(-c2cc(=O)c3c(O)cc(O)cc3o2)c(OC)c(OC)c1OC | 200 µg/mL |  |  | nucleotide incorporation / radiometric | 18.7%
Cc1cn([C@H]2C[C@H](N=[N+]=[N-])[C@@H](CP(=O)(O)OP(=O)(O)C(F)(F)P(=O)(O)O)O2)c(=O)[nH]c1=O | 10 µM |  |  | fluorescence | 25%
CCN(CC)C(=O)c1cc2cc3c(cc2[nH]1)OCO3 | 50 µM | IIIB |  | RT activity | 30.8%
Cc1cn([C@H]2CC[C@@H](CC(F)(F)P(=O)(O)OP(=O)(O)C(F)(F)P(=O)(O)O)O2)c(=O)[nH]c1=O | 10 µM |  |  | fluorescence | 41–58%
C=C1[C@H]2CCC3C(CCC4[C@@]3(C)CCC[C@@]4(C)C(=O)O)(C2)[C@@H]1OC(C)=O | 200 µg/mL |  |  | RT activity | 11.8%
C/C=C/c1occ(C(=O)c2c(OC)cc(OC)cc2C(=O)OC)c(=O)c1OC | 100 µM |  |  | nucleotide incorporation | 0%
Cc1cc(O)c2c(c1)C(=O)C=CC2=O | 100 µg/mL |  |  | RT activity | 100%
CO[C@H]1/C=C/O[C@@]2(C)Oc3c(C)c(O)c4c(O)c(c5c(c4c3C2=O)NC2(CCN(CC(C)C)CC2)N=5)=NC(=O)/C(C)=C\C=C\[C@H](C)[C@H](O)[C@@H](C)[C@@H](O)[C@@H](C)[C@H](OC(C)=O)[C@@H]1C | 150 µg/mL |  |  | nucleotide incorporation | 78%
Nc1ccn([C@@H]2CS[C@H](COP(=O)(O)OP(=O)(O)C(F)(F)P(=O)(O)O)O2)c(=O)n1 | 0.5 µM |  |  | fluorescence | 37.1%
C=C(CC[C@@H](C)[C@H]1CC[C@@]2(C)C3CCC4C(C)(C)[C@@H](OC(=O)CCCCCCCCCCCCCCC)CC[C@@]45C[C@@]35CC[C@]12C)C(C)(C)O | 200 µg/mL |  |  | RT activity | 3.1%
COc1ccccc1N1CCN(C(=O)c2cc3cc4c(cc3[nH]2)OCO4)CC1 | 50 µM | IIIB |  | RT activity | 96.9%
COc1c(OC)c(OC)c(-c2cc(=O)c3c(O)cc(O)cc3o2)c(OC)c1OC | 200 µg/mL |  |  | nucleotide incorporation / radiometric | 14.8%
COc1cc2c(O[C@@H]3O[C@H](CO)[C@@H](O)[C@H](O)[C@H]3O)c(CO)c(CO)c(-c3ccc4c(c3)OCO4)c2cc1OC | 200 µM |  |  | nucleotide incorporation / radiometric | 0%
Cc1cn([C@H]2CC[C@@H](CC(F)(F)P(=O)(O)OP(=O)(O)NP(=O)(O)O)O2)c(=O)[nH]c1=O | 10 µM |  |  | fluorescence | 41–58%
CC[C@H]1CN2CCc3cc(OC)c(OC)cc3[C@@H]2C[C@@H]1C[C@H]1NCCc2cc(OC)c(OC)cc21 | 400 µg/mL |  |  |  | 10–20%
O=c1c(O)c(-c2ccc(O)c(O)c2)oc2cc(O)cc(O)c12 | 2 µg/mL |  |  | nucleotide incorporation | 100%
Cc1ccc2c(c1O)C(=O)C=CC2=O | 100 µg/mL |  |  | RT activity | 100%
O=C(/C=C/c1ccc(O)c(O)c1)O[C@@H]1C[C@](OC(=O)/C=C/c2ccc(O)c(O)c2)(C(=O)O)C[C@@H](O)[C@H]1O | 5 µg/mL | LAI |  |  | 13%
Cc1cn([C@H]2CC[C@@H](COP([O-])(=S)OP(=O)(O)C(F)(F)P(=O)(O)O)O2)c(=O)[nH]c1=O | 0.5 µM |  |  | fluorescence | 20.7%
Oc1cc(O)c2c(c1)O[C@H](c1ccc(O)c(O)c1)[C@H](O)C2 | 10 µg/mL |  |  |  | 0%
C=C1C(=O)[C@@]23CCC4[C@@](C)(CCC[C@@]4(C)C(=O)O)C2CC[C@H]1C3 | 200 µg/mL |  |  | RT activity | 66.1%
CC[C@H]1CN2CCc3cc(OC)c(OC)cc3[C@@H]2C[C@@H]1CC1=NCCc2cc(O)c(OC)cc21 | 400 µg/mL |  |  |  | 10–20%
Cc1cn([C@H]2C[C@H](N)[C@@H](COP([O-])(=S)OP(=O)(O)C(F)(F)P(=O)(O)O)O2)c(=O)[nH]c1=O | 0.5 µM |  |  | fluorescence | 13.2%
O=C(/C=C/c1ccc(O)c(O)c1)OC1[C@H](O)CC(O)(C(=O)O)C[C@H]1O | 100 µg/mL |  |  | RT activity / absorbance | 43.9%
CC(=O)c1ccc(C)cc1NC(C(N)=O)c1c(Cl)cccc1Cl | 20 µg/mL |  |  |  | 95.2%
Nc1nc(Cl)c2ncn([C@H]3C=C[C@@H](COP(=O)(O)OP(=O)(O)OP(=O)(O)O)C3)c2n1 | 10 µM |  |  | fluorescence | 12.3%

For reference, 3 entries again:

smiles,dose,strain,mutations,read by,value
Nc1nc(Cl)c2ncn([C@H]3C=C[C@@H](COP(=O)(O)OP(=O)(O)OP(=O)(O)O)C3)c2n1,10 µM,,,fluorescence,12.3%
Cc1cn([C@H]2CC[C@@H](COP([O-])(=S)OP(=O)(O)C(F)(F)P(=O)(O)O)O2)c(=O)[nH]c1=O,0.5 µM,,,fluorescence,20.7%
COc1cc2c(O[C@@H]3O[C@H](CO)[C@@H](O)[C@H](O)[C@H]3O)c(CO)c(CO)c(-c3ccc4c(c3)OCO4)c2cc1OC,200 µM,,,nucleotide incorporation / radiometric,0%

a–b is a range or a potency band. Blank or dashed fields: not listed here. Inhibition is in % at the dose shown (toxicity tests: loss of growth or viability).